Laboratory results as given in article PMC5920107, “Self-homodimerization of an actinoporin by disulfide bridging reveals implications for their structure and pore formation” (Scientific Reports, 2018).

Molecular target: the molecule itself

B1: sticholysin I Trp111 to Cys mutant (StI W111C) (natural protein)
chain: SELAGTIIDGASLTFQVLDKVLGELGKVSRKIAVGIDNESGGTWTALNAYFRSGTTDVILPEVVPNTKALLYSGRKSSGPVATGAVAAFAYYMSNGNTLGVMFSVPFDYNCYSNWWDVKIYPGKRRADQGMYEDMYYGNPYRGDNGWYQKNLGYGLRMKGIMTSAGEAKMQIKISR
With B1 the “stoichiometry N” value was 2.
